Mtb glucose medium: 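Growth of Mycobacterium tuberculosis over 3 days (7H9 medium with glucose and tyloxapol); the read-out is not stated. Concentration: 50 µM. Direction is inferred from retests: higher values go with more growth inhibition. Size under these conditions: about 69,000 compounds, about 760 of them at 50% or above in at least one test.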
Mtb cholesterol medium: 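Whole-cell growth test on Mycobacterium tuberculosis, read after 4 days in a medium based on cholesterol and the lipid DPPC; the read-out is not stated. Tested at 50 µM. Higher reads as more growth inhibition (inferred: compounds with an IC50 in retests scored well above the rest). About 69,000 compounds were tested under these conditions; 0.54% (about 370) showed 50% or more at least once.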

Results are given as percent effect.
The record does not define 0% and 100%; most values in the screen are far below 50% and negative numbers occur (in some assays of this library far below -100).
The entries come from a sample that favours strong results.
Two or more numbers in one place are separate tests of the same structure; such repeats can differ widely.
A dash means the value is not listed here; it may have been measured.

SMILES,Mtb glucose medium,Mtb cholesterol medium
CCCOc1cc(C)ccc1NC(=O)N(C)C,-,0.4143%
CCc1nc2c(NCC3COc4cc(OC)ccc4C3)ncnc2o1 (stereo not drawn),-7.146%,-
CCN(C)S(=O)(=O)NCC1(c2cccc(Br)c2)CC1,21.12%,-3.168%
O=C(NCC1(c2cccc(F)c2)CC1)N1CCC2(CCOC2)C1 (stereo not drawn),6.727% & -11.85%,-
CC(CNC(=O)N1CCN(Cc2ccon2)CC1)Cc1cccs1 (stereo not drawn),-10.1%,-
c1cc(CN(CCCn2ccnc2)Cc2ccoc2)ccn1,7.484%,-
COCCCNC(=O)Nc1ccc(OCc2noc(C3CC3)n2)cc1,-17.19% & 2.74%,-
CCc1ccc2nc(-c3cnn(C)c3)cc(C(=O)N3CCOCC3)c2c1,-10.4%,-
COc1cc(COCC2CCN(Cc3ccccn3)CC2)cc(OC)c1.O=C(O)C(=O)O,-,0.8464%
[H][C@]12CCN(C(=O)c3cc(C)oc3C)C[C@@]1([H])OCCN(c1ncccn1)C2,-19.39%,-
CC1CCC(N2Cc3nc(N)ncc3C2=O)CC1 (stereo not drawn),41.5%,1.61%
[H][C@]12CC[C@]([H])(CN(Cc3ccc(F)cc3)C1)N(Cc1snnc1C)C2,13.29%,-
Cc1nn(C)c2c(NCc3ccncc3)nc(C3CC3)nc12,-6.761%,-
OCC(O)CSCc1cc(Cl)ccc1Cl (stereo not drawn),32.63%,18.24%
COc1cccc(C(C)Nc2ncnc3c2NC(=O)CN3)c1 (stereo not drawn),95.56%,-
COCCNc1nc2c(c(NCc3ccncc3)n1)CCNCC2,3.052%,-
CN(Cc1cccc(-n2cccn2)c1)C(=O)c1ccnc(N)c1,-12.85%,-5.286%
O=C1Nc2ccccc2NC12CCN(c1cccc(C(F)(F)F)n1)CC2,-,114.6%
COc1cccc(-c2cnnc(N(C)CCC3CCCCO3)n2)c1 (stereo not drawn),12.24%,-
CN(Cc1nc(CC2CC2)no1)CC1Cc2ccccc2O1 (stereo not drawn),-,53.98%
O=C1N(Cc2ccc(F)c(F)c2)CCCC12CCN(C1CCCC1)C2 (stereo not drawn),64.08% & 51.83%,32.95%
COc1c(C)cc(C(C(=O)O)N(C)Cc2ccn[nH]2)cc1C (stereo not drawn),-12.24%,-
O=C(CC1CCc2ccccc21)NCCSc1ccccn1 (stereo not drawn),-20.36%,-
Clc1ccccc1CCN1CCN(c2ccc3nncn3n2)CC1,50.51%,-
COc1ccc(-c2nc(CN(C)Cc3nncn3C)c(C)o2)c(C)c1C,62.67%,-
N[C@H]1CN(S(=O)(=O)c2ccccc2)C[C@@H]1C1CC1,30.68%,4.908%
CNc1nc2c(s1)C(c1ccc(Cl)cc1Cl)CC(=O)N2 (stereo not drawn),52.85%,-
O=C(c1cccc2cn[nH]c12)N1CCCC1c1noc(C2CC2)n1 (stereo not drawn),8.359%,-
CCc1noc(CNc2cc3c(cc2Cl)OCCCO3)n1,38.11% & 25.23%,-
Cc1nc(CN2CCN(CCCc3nc4ccccc4o3)CC2)no1,-22.36%,-26% & -5.577%
CN(Cc1nnc2n1CCC2)C(=O)c1ccc2c(c1)OCO2,-12.86%,-
Fc1cccc(CN2CCC(c3n[nH]c4ncccc34)CC2)c1F,8.114%,-
CCN1CCN(C[C@@H]2CN(c3ncc(Cl)cc3F)C[C@@H]2CO)CC1,36.14%,17.95%
CC1(C)CCC(CC(=O)O)c2ccccc21 (stereo not drawn),-,-1.827%
OCCOCCNCC1(c2ccc(F)cc2)CCOC1 (stereo not drawn),31.64%,-4.227%
Cc1nc(CNCc2cccc(OC34CCCN(CC3)C4)c2)n[nH]1 (stereo not drawn),9.222%,14.54%
O=S(=O)(CCN1CCOC(Cn2cccn2)C1)C(F)(F)F (stereo not drawn),83.87%,-
O=C(c1cccs1)N1CC(Oc2ccccc2Cl)C1,-,47.33% & 49.13%
CCc1noc(CN2CCC(c3ccnn3CCO)CC2)n1,20.63%,-
O=C(NCCc1cc(=O)[nH]cn1)c1[nH]nc2c1CCCC2,-,-0.555%
[H][C@]12CC[C@]([H])(CN(Cc3cscn3)C1)N(Cc1cc(C(C)(C)C)[nH]n1)C2,18.9%,-
CCc1ccc(-c2cn(CCSc3ncn[nH]3)nn2)nc1,-14.11%,-
CC(C)N(C)C(=O)COc1ccc(-c2noc(C3CCCO3)n2)cc1 (stereo not drawn),9.637%,-
Cc1nnc2n1CCN(C(=O)c1cc(Br)c[nH]1)C2,-0.5452%,-
CC(C)C[C@@H](CO)n1cc(-c2cnc(-c3ccco3)nc2)nn1,0.09871%,-
COc1ccc(F)c(CN(CCCn2ccnc2)Cc2ccc(C)s2)c1.O=C(O)CC(O)(CC(=O)O)C(=O)O,-4.681%,-
CCOCCN1CCn2c(C)nnc2C1,-,106.4%
CCC1CN(CC(=O)NCCN2CCCCC2)c2ccccc2S1 (stereo not drawn),36.18%,-
Cc1nnc2n1CCN(C(C)c1nnc(-c3cccs3)o1)C2 (stereo not drawn),9.521%,-
Cc1cccc(OCCSCCn2nc3ccccn3c2=O)c1,-,-17.54%
CN1CCC(CNC(=O)CCSc2ccc3c(c2)OCCO3)C1 (stereo not drawn),16.2%,24.86%
CC(C(=O)N1CCN(c2cnccn2)CC1)n1cncn1 (stereo not drawn),-18.6%,-
Cc1nn(CC(=O)N(C)Cc2nncn2C(C)C)c(=O)c2ccccc12,-,4.782%
COCCN(Cc1cccs1)C(=O)C1CCCN(C(N)=O)C1 (stereo not drawn),4.409% & -54.27%,-
COc1cccc(CNC(=O)NC2(c3nc(C)no3)CCCCC2)c1,-2.517% & 2.558%,-
Clc1cc(CN2CCCN3CCCC3C2)c2ncccc2c1 (stereo not drawn),72.17%,-
NCc1n[nH]c(-c2cccc(F)c2)n1,-7.661% & -26.02%,-
Cc1n[nH]c(C2CN(C(=O)c3cnc[nH]3)CCO2)n1 (stereo not drawn),-23.23%,-
CSCCC(NC(N)=O)C(=O)Nc1ccc(-n2cccn2)nc1 (stereo not drawn),-5.275% & 1.35%,11.98%
COc1cc(CNC(=O)c2csc(Br)c2)ccn1,28.48%,-
Cc1cc(CN(C)C(=O)NCc2ccco2)no1,5.652%,-
c1cnc(-c2nc(C3CCOC3)no2)cn1 (stereo not drawn),-,35.25% & 80.94%
CCn1ccnc1CN(C)Cc1nc(Cc2cccc(F)c2)no1,-,-3.052%
CCOc1ccc(NC(=O)NCCS(=O)(=O)CC)cc1C,-26.24%,1.74%
CCOc1ccc(OCc2nccc(-c3cc(C(=O)O)ccn3)n2)cc1,-,107.4%
COC(=O)CCC(=O)NC(C)Cc1ccccc1Br (stereo not drawn),44.06%,-
Cc1cc(N2CCC(CO)(CC3CCCCO3)CC2)nc2ccccc12 (stereo not drawn),-21.09% & 11.18%,11.87%
CC(C)CCN1CCNC(=O)C1CC(=O)NCCc1cc(O)ncn1 (stereo not drawn),77.43% & 0.4058%,-
CCOCCCC(=O)Nc1ccc(OCc2noc(C3CC3)n2)cc1,7.434% & -7.877%,-
COc1ccc([C@@H]2C[C@H](NC(C)=O)C[C@H](Cc3ccccc3)O2)cn1,-,28.38% & 53.09%
Cc1cc(NCCNc2cccnc2)nc(N)n1,-22.85%,-
O=C(NCCNc1ccc(C(F)(F)F)cn1)c1ccc(Br)cc1,36.76%,28.9%
O=C(Nc1cccnc1)C1Cc2nc(-c3ccsc3)sc2N1CC1CC1.O=C(O)C(F)(F)F (stereo not drawn),-12.01%,-
Cc1cnc(N2CCCC3(COCCN(c4ccc(C)nn4)C3)C2)nc1 (stereo not drawn),15.16%,-
CCN(C)CC(=O)N1CCC(c2cc(N3CCOCC3)nc(C)n2)CC1,-0.9815%,-
COc1cnc(C2(O)CCN(C(=O)c3ccccn3)CC2)c(OC)n1,-,9.315%
CC(NC(=O)C1=NN(C)C(=O)CC1)c1ccc(Cl)cc1 (stereo not drawn),0.3178%,5.8%
COc1ccc(OCc2nccc(-c3cc(C(=O)O)ccn3)n2)cc1,-,18.21%
Cc1nc(C)c(C(=O)N2CCc3nc4sc(C)cc4c(=O)n3CC2)o1,-2.472%,-
Cc1cnn(-c2cccc(N3CCCCC3)n2)c1,-,-5.993%
CN(Cc1cccc(OC(F)(F)F)c1)C(=O)c1ccncc1F,-1.801%,-5.055%

The values are deposited in ChEMBL (CHEMBL3988442, “University of Dundee, Small-Polar-MMV Screening Library” (2021)).